A mixed list of measured activities; the numbers were collected in NIAID ChemDB.

Shared fields: enzyme or target tests; protein: Cathepsin D; read-out: IC50

Rows are shuffled and stem from different studies. ICn is the concentration giving n% inhibition.

compound	result
CSC[C@H](NC(=O)COc1cccc2cnccc12)C(=O)N[C@@H](Cc1ccccc1)[C@H](O)C(=O)N1CSC(C)(C)[C@H]1C(=O)NC(C)(C)C	23 µM
CCC(Cc1ccccc1)c1cc(O)c(C(CC)c2ccccc2)c(=O)o1	~10 µM
CC(C)C[C@H](NC(=O)[C@H](Cc1ccccc1)C[C@@H](O)[C@H](Cc1ccccc1)NC(=O)OC(C)(C)C)C(=O)N[C@@H](Cc1ccccc1)C(N)=O	1.8 µM
CSC[C@H](NC(=O)COc1cccc2cnccc12)C(=O)N[C@@H](Cc1ccccc1)[C@H](O)C(=O)N1CSC(C)(C)[C@H]1C(=O)NC(C)(C)C	23 µM
CC(C)[C@H](NC(=O)OCc1ccccn1)C(=O)N[C@@H](Cc1ccccc1)C(=O)C(F)(F)[C@H](Cc1ccccc1)NC(=O)[C@@H](NC(=O)OCc1ccccn1)C(C)C	94 µM
CC(C)CN(C[C@@H](O)[C@H](Cc1ccccc1)NC(=O)[C@H](CC(N)=O)NC(=O)c1ccc2ccccc2n1)C(=O)NC(C)(C)C	>10 µM
CC(C)[C@H](NC(=O)c1ccc2ccccc2n1)C(=O)N[C@@H](Cc1ccccc1)[C@H](O)CN1CC[C@@H](OCc2ccncc2)C[C@H]1C(=O)NC(C)(C)C	100 µM
CCNC(=O)[C@@H](NC(=O)Cc1ccccc1)[C@@H]1N[C@@H](C(=O)NCCNC(=O)[C@@H]2N[C@@H]([C@H](NC(=O)Cc3ccccc3)C(=O)NCC)SC2(C)C)C(C)(C)S1	>100 µM
Cc1cccc(COC(=O)N[C@H](C(=O)N[C@@H](Cc2ccccc2)C(=O)C(F)(F)[C@H](Cc2ccccc2)NC(=O)[C@@H](NC(=O)OCc2cccc(C)n2)C(C)C)C(C)C)n1	>100 µM
CC(C)CN(C[C@@H](O)[C@H](Cc1ccccc1)NC(=O)[C@H](CC(N)=O)NC(=O)c1ccc2ccccc2n1)C(=O)NC(C)(C)C	>10 µM
CCCCNC(=O)[C@H](C)C[C@H](O)[C@H](CC1CCCCC1)NC(=O)[C@@H](NC(=O)[C@H](CCCN)NC(=O)OC(C)(C)C)C(C)C	21 µM
COCCNC(=O)[C@@H](NC(=O)[C@H](Cc1ccc(OC)c(OC)c1OC)C[C@H](O)[C@H](Cc1ccccc1)NC(=O)OC(C)(C)C)C(C)C	0.1 µM
COC(=O)N[C@@H](Cc1c[nH]c2ccccc12)C(=O)NCCCC[C@@H](CO)N(CC(C)C)S(=O)(=O)c1ccc(N)cc1	30 µM
CC(C)C[C@H](NC(=O)[C@@H](NC(=O)N(C)Cc1ccccn1)C(C)C)C(=O)C(F)(F)[C@H](CC(C)C)NC(=O)[C@@H](NC(=O)N(C)Cc1ccccn1)C(C)C	98 µM
CCCCNC(=O)[C@H](C)C[C@H](O)[C@H](CC1CCCCC1)NC(=O)[C@@H](NC(=O)[C@@H](NC(=O)OC(C)(C)C)[C@@H](C)O)C(C)C	1.4 µM

The last 2 rows once more:

compound | result
CC(C)C[C@H](NC(=O)[C@@H](NC(=O)N(C)Cc1ccccn1)C(C)C)C(=O)C(F)(F)[C@H](CC(C)C)NC(=O)[C@@H](NC(=O)N(C)Cc1ccccn1)C(C)C | 98 µM
CCCCNC(=O)[C@H](C)C[C@H](O)[C@H](CC1CCCCC1)NC(=O)[C@@H](NC(=O)[C@@H](NC(=O)OC(C)(C)C)[C@@H](C)O)C(C)C | 1.4 µM